Pooled drug test results. Numbers come from NIAID ChemDB, via PubChem.

Common to all: growth or infection tests; species: HIV-1; endpoint: inhibition

Rows are shuffled and stem from different studies. Percent inhibition refers to the dose given; in toxicity tests it is the harm to the cells. a–b is a range or a potency band. An empty or dashed field is not shown.

compound	cells	method	strain	tested at	setting	value
COc1cccc2c(C(=O)C(=O)N3CCN(C(=O)c4ccccc4)C[C@@H]3C)c[nH]c12	HeLa + HELA CD4+/CCR5	luciferase	-	10 µM	-	>98%
CC1(C)[C@@H](O[C@H]2O[C@H](C(=O)O)[C@@H](O)[C@H](O)[C@H]2O[C@@H]2O[C@H](C(=O)O)[C@@H](O)[C@H](O)[C@H]2O)CC[C@]2(C)[C@H]3C(=O)C=C4[C@@H]5C[C@@](C)(C(=O)O)CC[C@]5(C)CC[C@@]4(C)[C@]3(C)CC[C@@H]12	MT-4	plaque count	IIIB	600 µM	-	100%
Cc1cccc2c1NC(=O)C2CC(=O)N[C@@H](Cc1ccccc1)C(=O)N(C)c1cccc(Cl)c1	-	fluorescence	NL4-3	20 µM	-	85%
COc1cccc2c(C(=O)C(=O)N3CCN(C(=O)c4ccccc4)C[C@H]3C)c[nH]c12	HeLa + HELA CD4+/CCR5	luciferase	-	10 µM	-	>98%
CCCCCCCCCCCCCCCCOP(=O)(OC[C@H]1OC(O)[C@@H](O)[C@@H](O)[C@@H]1O)OC[C@H]1O[C@@H](n2cc(C)c(=O)[nH]c2=O)C[C@@H]1N=[N+]=[N-]	U-937	RT activity	LAV-Bru	1 µM	11 d	0%
O=C(NCCc1ccccc1)Nc1nc(-c2ccc(Cl)cc2)cs1	MT-4	cytopathic effect / XTT	-	100 µg/mL	-	18%
N=C1Sc2ccccc2C2=NCCCN12	TZM-bl	β-galactosidase	93BR021	4.26 µM	-	90%
COc1ccc(Br)c2[nH]cc(C(=O)C(=O)N3CCN(C(=O)c4ccccc4)CC3)c12	HeLa + HELA CD4+/CCR5	luciferase	-	10 µM	-	>98%
COC(=O)[C@H]1[C@@H]2C[C@@H](O[C@@H]3O[C@H](C)[C@@H](O)[C@H](N)[C@@H]3O)/C=C/C=C/C=C/C=C/C=C/C=C/C=C/[C@H](C)[C@@H](O)[C@H](C)[C@H](C)OC(=O)C[C@H](O)C[C@H](O)[C@@H](O)CC[C@H](O)C[C@H](O)C[C@](O)(C[C@@H]1O)O2	H9	p24 / antigen	IIIB	1 µg/mL	-	43%
O=c1oc2cc(O)cc(O)c2c(O)c1-c1coc2c1c(=O)oc1cc(O)cc(O)c12	MT-4	MTT	IIIB	5 µM	-	75%
Cc1ccc(C)c2c1NC(=O)C2CC(=O)N[C@@H](Cc1ccccc1)C(=O)N(C)c1ccc(Cl)cc1	-	fluorescence	NL4-3	20 µM	-	98%
S=C(NCCc1ccccc1)N1CCCc2ccccc21	MT-4	cytopathic effect / XTT	-	1 µg/mL	-	0%
CC1(C)OC(=O)C2(C(=O)O1)[C@@H](c1ccccc1)CC(=O)C[C@H]2[C@H]1COC(C)(C)O1	SupT1	MTT	NL4-3	0.1 µM	-	>50%
N=C1Sc2ccccc2C2=NCCCN12	PBMC	MTS	92UG029	4.67 µM	-	90%
O=C(NCCc1ccccc1)Nc1nc2ccccc2s1	MT-4	cytopathic effect / XTT	-	10 µg/mL	-	99–100%
Cc1ccc(N(C)C(=O)[C@H](Cc2ccccc2)NC(=O)Cc2ccc3ccccc3c2)cc1	-	fluorescence	NL4-3	2 µM	-	80%
O=C(C(=O)N1CCN(C(=O)N2NC=CS2)CC1)c1c[nH]c2cccc(F)c12	HeLa + HELA CD4+/CCR5	luciferase	-	10 µM	-	88%
C[C@H]1[C@H](O)[C@@H](C)/C=C/C=C/C=C/C=C/C=C/C=C/C=C/[C@H](O[C@@H]2O[C@H](C)[C@@H](O)[C@H](N)[C@@H]2O)C[C@@H]2O[C@](O)(C[C@@H](O)C[C@@H](O)CC[C@H](O)[C@@H](O)C[C@@H](O)CC(=O)O[C@H]1C)C[C@H](O)[C@H]2C(=O)O	PBMC	p24 / RT activity	92RW009 CLADE A X4/R5(SI)	10.9 µM	-	90%
O=C(NCCc1ccccc1)Nc1nc2ccc(F)cc2s1	MT-4	cytopathic effect / XTT	-	10 µg/mL	-	21–100%
C[C@@H]1CN(C(=O)c2ccccc2)CCN1C(=O)C(=O)c1c[nH]c2cccc(Br)c12	HeLa + HELA CD4+/CCR5	luciferase	-	10 µM	-	40%
Cc1ccc(C)c2c1NC(=O)C2CC(=O)N[C@@H](Cc1ccccc1)C(=O)N(C)c1ccc(F)cc1	-	fluorescence	NL4-3	20 µM	-	70%
CC(=O)CCC(=O)NCCCOCCOCCCNC(=O)CNC(=O)[C@H](CS)NC(=O)[C@@H](NC(=O)[C@@H](NC(=O)[C@H](CO)NC(=O)[C@@H](N)CS)C(C)C)[C@@H](C)O	PBMC(PHA STIM.) + PBMC	p24	p13	0.3 µM	-	76%
Cc1cn([C@H]2C[C@H](N=[N+]=[N-])[C@@H](COP(=O)(O)OCCO[C@H]3O[C@H](CO)[C@@H](O)[C@H](O)[C@@H]3O)O2)c(=O)[nH]c1=O	U-937	RT activity	LAV-Bru	5 µM	11 d	0%
O=C1NC(=S)N[C@@H]1Cc1ccc(O)cc1	MT-4	cytopathic effect / XTT	-	1 µg/mL	-	0%
CCCCCCCCCCCCCCCCOP(=O)(OCCO[C@@H]1O[C@H](CO)[C@@H](O)[C@H](O)[C@@H]1O)OC[C@H]1O[C@@H](n2cc(C)c(=O)[nH]c2=O)C[C@@H]1N=[N+]=[N-]	CEM	RT activity	LAV-Bru	0.2 µM	15 d	87%
Cc1ccc(-c2ccc3c(c2)C=C(C(=O)Nc2ccc(C[N+](C)(C)C4CCOCC4)cc2)CCC3)cc1	PBMC	p24	COT9 CLADE C	1 µM	-	87.3%
CC(C)[C@H](NC(=O)[C@H](CO)NC(=O)[C@@H](N)CS)C(=O)N[C@H](C(=O)N[C@@H](CS)C(=O)NCC(=O)O)[C@@H](C)O	PBMC(PHA STIM.) + PBMC	p24	p13	1.8 µM	-	95%
O=C(NCCc1ccccc1)Nc1ccccc1	MT-4	cytopathic effect / XTT	-	1 µg/mL	-	0%
CCN(C(=O)[C@H](Cc1ccccc1)NC(=O)CN1C(=O)NC2(CCCCC2)C1=O)c1ccccc1	-	fluorescence	NL4-3	20 µM	-	92%
C[C@@H]1CN(C(=O)c2ccccc2)CCN1C(=O)C(=O)c1c[nH]c2c(C(=O)O)ccc(F)c12	HeLa + HELA CD4+/CCR5	luciferase	-	10 µM	-	>98%
Cc1cccc2sc(NC(=O)NCCc3ccccc3)nc12	MT-4	cytopathic effect / XTT	-	1 µg/mL	-	8%
CN(C(=O)[C@H](Cc1ccccc1)NC(=O)Cc1cccc2ccccc12)c1ccccc1	-	fluorescence	NL4-3	2 µM	-	66%

For reference, 2 entries again:

compound | cells | method | strain | tested at | setting | value
Cc1cn([C@H]2C[C@H](N=[N+]=[N-])[C@@H](COP(=O)(O)OCCO[C@H]3O[C@H](CO)[C@@H](O)[C@H](O)[C@@H]3O)O2)c(=O)[nH]c1=O | U-937 | RT activity | LAV-Bru | 5 µM | 11 d | 0%
O=C(NCCc1ccccc1)Nc1nc(-c2ccc(Cl)cc2)cs1 | MT-4 | cytopathic effect / XTT | - | 100 µg/mL | - | 18%